The target of assay [1] is Human immunodeficiency virus type 1 reverse transcriptase (Human immunodeficiency virus 1, UniProt Q72547, K103N/Y181C). The assay is described as follows: Inhibition of HIV1 reverse transcriptase K103N/Y181C double mutant using oligo(dT)16 as primer measured after 40 mins by picogreen-dye based spectrofluorimetric analysis.
In assay [2] the target is Human immunodeficiency virus type 1 reverse transcriptase (Human immunodeficiency virus 1, UniProt Q72547, Y181C). The assay is described as follows: Inhibition of HIV1 reverse transcriptase Y181C mutant using oligo(dT)16 as primer measured after 40 mins by picogreen-dye based spectrofluorimetric analysis.
Assay [3] addresses Human immunodeficiency virus type 1 reverse transcriptase (Human immunodeficiency virus 1, UniProt Q72547, Y188L). Description: Inhibition of HIV1 reverse transcriptase Y188L mutant using oligo(dT)16 as primer measured after 40 mins by picogreen-dye based spectrofluorimetric analysis.
In assay [4] the target is Human immunodeficiency virus type 1 reverse transcriptase (Human immunodeficiency virus 1, UniProt Q72547, E138K). The assay is described as follows: Inhibition of HIV1 reverse transcriptase E138K mutant using oligo(dT)16 as primer measured after 40 mins by picogreen-dye based spectrofluorimetric analysis.
The target of assay [5] is Human immunodeficiency virus type 1 reverse transcriptase (Human immunodeficiency virus 1, UniProt Q72547, F227L/V106A). The assay is described as follows: Inhibition of HIV1 reverse transcriptase F227L/V106A double mutant using oligo(dT)16 as primer measured after 40 mins by picogreen-dye based spectrofluorimetric analysis.

SMILES strings stand for the structures.

The term IC50 denotes the concentration that inhibits the measured activity by half. Low readings indicate higher potency, high ones lower potency.

Regarding `Cc1cc(C#N)cc(C)c1Oc1nc(Nc2ccc(C#N)cc2)nc(N)c1Br` [ETRAVIRINE], the IC50 was 10 nM in assay [1]; 20 nM in assay [2]; 40 nM in assay [3]; 20 nM in assay [4]; 10 nM in assay [5].

(Values after ChEMBL document CHEMBL5036347, “Design of the naphthyl-diarylpyrimidines as potent non-nucleoside reverse transcriptase inhibitors (NNRTIs) via structure-based extension into the entrance channel” (Eur J Med Chem, 2021).)
